Construct, isoform or probe ends are uncertain for at least one entry. Protein sequences can lack the tags named with them.

This note sets out measurements from publication PMC10746192.

This series relates to T1, Rpn4 (His-tagged recombinant) (Candida auris).
T1 sequence (looked up, limits assumed): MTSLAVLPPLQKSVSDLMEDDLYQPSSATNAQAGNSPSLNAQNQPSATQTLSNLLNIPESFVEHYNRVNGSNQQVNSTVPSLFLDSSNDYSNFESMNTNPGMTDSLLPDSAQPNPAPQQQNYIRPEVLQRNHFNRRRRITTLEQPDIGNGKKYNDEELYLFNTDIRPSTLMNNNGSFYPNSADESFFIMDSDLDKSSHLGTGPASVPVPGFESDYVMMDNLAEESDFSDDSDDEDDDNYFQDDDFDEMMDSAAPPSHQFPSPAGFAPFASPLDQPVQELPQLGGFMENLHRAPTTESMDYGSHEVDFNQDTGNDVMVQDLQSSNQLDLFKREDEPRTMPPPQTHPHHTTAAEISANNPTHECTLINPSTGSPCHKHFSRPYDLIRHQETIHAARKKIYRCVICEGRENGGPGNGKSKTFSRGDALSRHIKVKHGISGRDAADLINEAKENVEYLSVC
Description: EMSA. The note with it: […] (binding buffer not stated), recombinant protein, protein details: His, probe letters rebuilt from the primers and the genome. Background: In EMSA bound probe runs differently from free probe, usually more slowly.

Take “GGTTTCTCGGACATGGAGATGGAAAAGTGAAGATTTGCCTTTAAAGTGGACTACATGCGATATATATATTGGCAGGCGAAAAGAAATGCCAAACAATGTCGCAGAGGGAGAGGTAGAAGCAGCCCCAGCTACGCTGCAGGAGCAGCAGGCATGAGATAGGGAATTCTGGCGGCAAATAGCGTATTGTGCGAGAGTTGCGCACGTTGGAGACGGCTGGCGGTGGAACTTCGGAAGGTGCGAGTTCCGGCTCTGGCCACTCCCACCGGGAGCCTGGCGGTGCACATTTAATCACTGGGGACAAAATGCCACAAAAAAACCGCCCTTCTCAGCCCTAACCACATACAACAAAAATAACCACCAGCTTCATAACCTGTGGGCAACAACTGGAGTCTCCACTTCC (double strand) [PCDR1]”: the binding result was “binds”.

Consider “TTTTGTTGCTTCTCGAAGTGCTACCTGGTCACTTAGAAGGCTGTGGAAGGATAGCGAAGGCTTCGAAAAAAGCTAAAGTTCGAGGTGGAAAGGTAAGGGTTTTTGGTTTGTGTAATTTGGATGAGTCCAGTCAAACACACTACAGGCCAAGCTTAGGTAAGAATTTCCTGAGCTGTAAGAAGAGTGTGTTGTGAGATGAGAAAGAAAATGTGAGAAATGGTGGCAAATATATATGGAGCTTACTAATGCAGGCTGAGGTGGCGTGCAGCACCGAAGCCCCAGAACAGATAAGACCTAGAAAATATGGGCTGCGAATCTGGCAGGTGAATTGGACCGGGAGGGTACCACCAAGATGAGGCCCACAATGATGCTAGAAAATCTCTGAAAACACCAACATGTTGCTCCCGTTCTTCTGATTATAGAAATGCAGTTTTCCCTCTCTTGGAACC (double strand) [PRPN4]”, for which the binding result is “binds”.
